Compound potency records, mixed from different reports. Data source: NIAID ChemDB in PubChem.

Shared fields: growth or infection tests; species: Mycobacterium avium; read-out: MIC90

An empty or dashed field is not shown.

compound,strain,read by,value
CC1COc2c(C3(N)CC3)c(F)cc3c(=O)c(C(=O)O)cn1c23,18 strains,,>100 µg/mL
N/C(=N\NC(CC(=O)c1cccc(Cl)c1)c1ccccn1)c1ccccn1,17 strains,,160 µg/mL
O=C(NN=C1CCCCC1)c1ccncc1,101,,0.08 µg/mL
NCC[C@H](O)C(=O)N[C@@H]1C[C@H](N)[C@@H](O[C@H]2O[C@H](CN)[C@@H](O)[C@H](O)[C@H]2O)[C@H](O)[C@H]1O[C@H]1O[C@H](CO)[C@@H](O)[C@H](N)[C@H]1O,100 strains,,6.75 µg/mL
O[C@@H](c1cc(C(F)(F)F)nc2c(C(F)(F)F)cccc12)[C@H]1CCCCN1,MAC 101,broth dilution / radiometric,64 µg/mL
CCOC(=O)c1c(-c2ccccc2)c2ccc(Cl)cc2oc1=O,ATCC 15769,resazurin,>100 µg/mL
C[C@H](O)[C@H]1C(=O)N2C(C(=O)O)=C(S[C@@H]3CN[C@H](C(=O)N(C)C)C3)[C@H](C)[C@H]12,,broth dilution / visual reading,>64 µg/mL
Cc1c(F)c(N2CCNC(C)C2)cc2c1c(=O)c(C(=O)O)cn2C1CC1,18 strains,,25 µg/mL
O[C@H](c1cc(C(F)(F)F)nc2c(C(F)(F)F)cccc12)[C@@H]1CCCCN1,MAC 101,broth dilution / radiometric,16 µg/mL
Cc1cccc(C(=O)CC(N/N=C(\N)c2ccccn2)c2cccnc2)c1,17 strains,,320 µg/mL
CCS/C(N)=N\N=C\c1ccc(C(F)(F)F)cc1,Clinical isolates,,6.25 µg/mL
CC1COc2c(N3CCN(C)CC3)c(F)cc3c(=O)c(C(=O)O)cn1c23,18 strains,,50 µg/mL
CC[C@H]1OC(=O)[C@H](C)[C@@H](O[C@H]2C[C@@](C)(OC)[C@@H](O)[C@H](C)O2)[C@H](C)[C@@H](O[C@@H]2O[C@H](C)C[C@H](N(C)C)[C@H]2O)[C@](C)(OC)C[C@@H](C)C(=O)[C@H](C)[C@@H](O)[C@]1(C)O,MAC 101,broth dilution / radiometric,4 µg/mL
N/C(=N\NC(CC(=O)c1ccc(Cl)c(Cl)c1)c1cccnc1)c1ccccn1,17 strains,,80 µg/mL
CCCN1CCN(c2cc3c(cc2F)c(=O)c(C(=O)O)cn3C2CC2)CC1,,,8 µg/mL
Cc1c(OCC(F)(F)F)ccnc1CSc1nc2ccccc2[nH]1,,resazurin,>100 µM
CCCCCCCCC#Cc1cn([C@H]2C[C@H](O)[C@@H](CO)O2)c(=O)nc1N,,,>100 µg/mL
CN1CCN(c2c(F)cc3c(=O)c(C(=O)O)cn(CCF)c3c2F)CC1,ATCC 15769,,100 µg/mL
O=C(O)c1cn(C2CC2)c2c(Cl)c(N3C[C@@H]4CCCN[C@@H]4C3)c(F)cc2c1=O,51 strains,,0.5 µg/mL
N/C(=N\NC(CC(=O)c1ccc(-c2ccccc2)cc1)c1cccnc1)c1ccccn1,17 strains,,320 µg/mL
C[C@@H]1CN(c2c(F)c(N)c3c(=O)c(C(=O)O)cn(C4CC4)c3c2F)C[C@H](C)N1,36 strains,,1.56 µg/mL
Cc1cccc(C(=O)CC(N/N=C(\N)c2ccccn2)c2ccncc2)c1,17 strains,,80 µg/mL
COc1c(N2CCNC(C)C2)c(F)cc2c(=O)c(C(=O)O)cn(C3CC3)c12,36 strains,,6.25 µg/mL
N/C(=N\NC(CC(=O)c1ccccc1)c1ccccn1)c1ccccn1,17 strains,,32 µg/mL
C[C@H]1COc2c(N3CCN(C)CC3)c(F)cc3c(=O)c(C(=O)O)cn1c23,36 strains,,6.25 µg/mL

For reference, 2 entries again:

compound	strain	read by	value
C[C@H](O)[C@H]1C(=O)N2C(C(=O)O)=C(S[C@@H]3CN[C@H](C(=O)N(C)C)C3)[C@H](C)[C@H]12		broth dilution / visual reading	>64 µg/mL
CC[C@H]1OC(=O)[C@H](C)[C@@H](O[C@H]2C[C@@](C)(OC)[C@@H](O)[C@H](C)O2)[C@H](C)[C@@H](O[C@@H]2O[C@H](C)C[C@H](N(C)C)[C@H]2O)[C@](C)(OC)C[C@@H](C)C(=O)[C@H](C)[C@@H](O)[C@]1(C)O	MAC 101	broth dilution / radiometric	4 µg/mL

MIC50, MIC90 and the like: level of inhibition, or share of isolates inhibited. Neighbouring rows are from separate reports.